Experimental data reported in paper PMC5722318, “Absence of anti-hypocretin receptor 2 autoantibodies in post pandemrix narcolepsy cases” (PLoS ONE, 2017).

Target: soluble DQ0602 monomer (heterodimer of HLA-DQA1*01:02 and HLA-DQB1*06:02) (human)
Test: peptide competition binding assay, DELFIA time-resolved fluorescence

Substance | percent of Bio-EBV epitope binding left with 40 uM competitor
13-mer HA_(143-155) peptide containing wild-type 146N | 43.8%
21-mer HA_(136-156) peptide containing wild-type 146N | 10.8%
